Results as given in the supplement of paper PMC9931576.
Human monoclonal antibodies against the spike receptor-binding domain (heavy:light variable regions). IC50 against pseudoviruses bearing the spike of naturally observed variants; lower = stronger; >10 µg/ml means not reached at the top dose. No active / inactive call. The stated detection limit is 0.0005 µg/ml; values near or below 0.001 µg/ml lie at the floor of the assay.

Columns and labels:
Experiment in all cases: pseudovirus neutralization IC50; higher = weaker neutralization
[1] = target: SARS-CoV-2 Omicron BA.1 spike pseudovirus
Description: (§1)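 Single-round VSV luciferase pseudovirus mixed with antibody dilutions for 1 h and put on Huh-7 cells for about a day; IC50 from the dose curve.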

[2] = target: SARS-CoV-2 Omicron BA.2 spike pseudovirus
Description: as §1

[3] = target: SARS-CoV-2 Omicron BA.2.75 spike pseudovirus
Description: as §1

[4] = target: SARS-CoV-2 Omicron BA.5 spike pseudovirus
Description: as §1

[5] = target: SARS-CoV-2 Omicron BQ.1.1 spike pseudovirus
Description: as §1

[6] = target: SARS-CoV-2 Omicron XBB spike pseudovirus
Description: as §1

[7] = target: SARS-CoV-2 early D614G spike pseudovirus
Description: as §1

| Binder | pseudovirus neutralization IC50 [1] [µg/mL] | pseudovirus neutralization IC50 [2] [µg/mL] | pseudovirus neutralization IC50 [3] [µg/mL] | pseudovirus neutralization IC50 [4] [µg/mL] | pseudovirus neutralization IC50 [5] [µg/mL] | pseudovirus neutralization IC50 [6] [µg/mL] | pseudovirus neutralization IC50 [7] [µg/mL] |
| --- | --- | --- | --- | --- | --- | --- | --- |
| BD56-1541 (protein) chain 1: EVQLVQSGVEVRKPGESLRISCKASGYMFTSHWIAWVRQMPGKGLEWMGIIYPYDSDTRYSPSFQGQVTISADQSITTAYLQWSSLKASDTALYYCARQDTYWYNFWGQGTLVTVSS chain 2: SSELTQDPAVSVALGQTVRITCQGDSLRSYYASWYQQKPGQAPVLVKYDNNNRPSGIPDRFSGSNSGNTASLTITGAQAEDEADYYCQSRDSSGNHLVFGGGTKLTVL | 1.4 | 2.06 | 1.82 | 2.18 | 3.14 | 5.52 | 2.5 |
| BD56-1542 (protein) chain 1: QVQLVESGGGVVQPGRSLRLSCVASGFTFSNYGMHWVRQAPGKGLEWVAVIWYDGSNKFYTDSVKGRLTISRDSSKNTVYLQMNSLRAEDTAVYFCAKQGGPYCSGGNCLGYLDYWGQGTLVTVSS chain 2: DIQMTQSPSSLSASVGDRVTITCQASQDISNYLNWYQQKPGKAPRLLIFGASNLETGVPSRFSGSGSGTDFTFTISRLQPEDIATYYCQRYDNLPPTFGGGTKVEIK | > 10 | > 10 | > 10 | > 10 | > 10 | > 10 | > 10 |
| BD56-1549 (protein) chain 1: QVQLQESGPGLVKPSETLSVTCAVSGGPINNYYWNWIRQPPGKGLEWIGYIYSSGSTKYHPSLKSRVTISVDTSKNQFSLKVRSVTAADTAVYYCVREGPTGFYDSWGQGTLVTVSS chain 2: EIVLTQSPGTLSLSPGERATLSCRASQSVSSGYLAWYQQKPGQAPRLLIYGASSRATGISDRFRGSGSGTDFTLTISRLEPEDFAVYYCQQYGGSEYTFGQGTKLEIK | > 10 | > 10 | > 10 | > 10 | > 10 | > 10 | > 10 |
| BD56-1552 (protein) chain 1: EVQLVESGGGLVQPGGSLRLSCAASGIIVRANYMNWVRQAPGKGLECVSVIYPGGSTFYADSVRGRFTISRDNSKNTLYLQMNSLRVEDTAVYYCARDQGEETFDIWGQGTMVTVSS chain 2: DIQLTQSPSFLSASVGDRVTITCRASQDIGSYLAWYQQKPGKAPRLLIYAASTLQSGVPSRFSGSDSGTEFTLTISSLQPEDFATYYCQQLNSYPPLFGGGTKVEIK | 0.00416 | 0.00674 | > 10 | 0.00761 | > 10 | > 10 | 0.0472 |
| BD56-1557 (protein) chain 1: EVQLVQSGAEVTKPGESLKISCKGSGYSFSTYWIAWVRQMPGEGLEWMGIIYPGDSDTRYSPSFQGQVTISADKSISTAYLQWSSLKASDTAIYYCARLYDYVGFDPWGQGTLVTVSS chain 2: SSELTQDPAVSVALGQTVRITCQGDSLRSYYASWYQQKPRQAPILVIYDKNKRPSGIPDRFSGSSSGNTASLTITGAQAEDEADYYCNSRNNSANHYVFGTGTKVTVL | 1.59 | 2.14 | 1.74 | 1.66 | 2.1 | 2.18 | 5.19 |
| BD56-1576 (protein) chain 1: EVQLVQSGAEVKKPGESLKISCKHSGYSLTSYWIGWVRQMPGKGLEWMGIIFPGDSDTRYSPSFQGHVTISADKSITTAYLQWASLKASDTAMYYCARLPGLGELSSHFDYWGQGTRVTVSS chain 2: DIQMTQSPSSLSASVGDRVTITCRASQRISTYLNWYQQKPGKVPKLLIYAASSLQSGVPSRFSGSGSGTDFTLTISSLQPEDFATYYCQQTFNAPMNTFGQGTTLDIK | > 10 | > 10 | > 10 | > 10 | > 10 | > 10 | > 10 |
| BD56-1579 (protein) chain 1: EVQLVESGGALVQPGGSLRLSCAASGFSFSTYWMHWVRHAPGTGLVWVSRIKSDGRSTNYADSVKGRFTISRDNAKNTLYLQMNSLRAEDTAVYYCTRVVMGASPLGYFDSWGQGTLVTVSA chain 2: NFMLTQPHSVSESPGKTVTISCTGSSGSIASNYVQWYQQRPGSAPTTVIYEDNQRPSGVPDRFSGSIDSSSNSASLTISGLKTEDEADYYCQSYDIYNPAVVFGGGTKLTVL | 0.462 | 4.51 | 1.82 | 6.64 | 5.07 | 5.89 | 0.372 |
